Results taken from patent US6870029B2, “Method of diagnosing and treating gliomas” (priority 1995, dated 2005).

Test system: D54MG glioma cells
Assay: 125[I]-chlorotoxin binding, Scatchard analysis
Design: species or system human

chlorotoxin
high affinity Ctx binding sites per cell: approximately 1,300 sites per cell | low affinity binding sites per cell: ~13,300 sites per cell
